# Experiments:
# [1] = Metal corrosion inhibition in brake fluid A, brass; conditions: 100°±2° C., 120±2 hours, blank -0.20
# [2] = Metal corrosion inhibition in brake fluid A, copper; conditions: 100°±2° C., 120±2 hours, blank +0.18
# [3] = Metal corrosion inhibition in brake fluid A, tin-plate; conditions: 100°±2° C., 120±2 hours, blank -0.15
# [4] = Metal corrosion inhibition in brake fluid A, cast iron; conditions: 100°±2° C., 120±2 hours, blank -0.14
# [5] = Metal corrosion inhibition in brake fluid A, aluminum; conditions: 100°±2° C., 120±2 hours, blank +0.07
# [6] = Metal corrosion inhibition in brake fluid A, steel; conditions: 100°±2° C., 120±2 hours, blank -0.20
# [7] = Table 4, azaalkenelactams […] by weight in brake fluid A
# [8] = Table 5, carboxylate derivatives […] by weight in brake fluid A
Molecule,"Weight change, brass [1, 7]","Weight change, copper [2, 7]","Weight change, tin-plate [3, 7]","Weight change, cast iron [4, 7]","Weight change, aluminum [5, 7]","Weight change, steel [6, 7]","Weight change, brass [1, 8]","Weight change, copper [2, 8]","Weight change, tin-plate [3, 8]","Weight change, cast iron [4, 8]","Weight change, aluminum [5, 8]","Weight change, steel [6, 8]"
"CCCCCCCCCCCCCCNCCN1CCN=C(C)CC1=O [Example 35, 4-tetradecylaminoethyl-7-methyl-3,6-dihydro-2H-1,4-diazepin-5-one]",0 mg/cm^2,+0.01 mg/cm^2,0 mg/cm^2,-0.01 mg/cm^2,0 mg/cm^2,-0.01 mg/cm^2,,,,,,
"CCCCCCCCCCCCNCCNCCN1CCN=C(C)CC1=O [Example 34, 4-dodecylaminoethylaminoethyl-7-methyl-3,6-dihydro-2H-1,4-diazepin-5-one]",-0.01 mg/cm^2,+0.01 mg/cm^2,0 mg/cm^2,-0.01 mg/cm^2,0 mg/cm^2,-0.01 mg/cm^2,,,,,,
"CCCCCCCCCCCCN1CCCN=CC(C)C1=O (stereo not drawn) [Example 44, 1-dodecyl-3-methyl-3,6,7,8-tetrahydro-1,5-diazocin-2-one]",-0.02 mg/cm^2,+0.03 mg/cm^2,0 mg/cm^2,-0.01 mg/cm^2,+0.02 mg/cm^2,-0.01 mg/cm^2,,,,,,
CCCCCCCCCCCCCCNCCN1CC[N+](CC(=O)[O-])=CCCC1=O [4-tetradecylaminoethyl-4-aza-1-azoniacyclooct-8-en-5-one-1-acetate],,,,,,,0 mg/cm^2,-0.01 mg/cm^2,-0.02 mg/cm^2,-0.01 mg/cm^2,+0.01 mg/cm^2,-0.02 mg/cm^2
"CCCCCCCCCCCCCCNCCN1CCCN=CC(C)(C)C1=O [Example 60, 1-tetradecylaminoethyl-3,3-dimethyl-6,7,8-trihydro-1,5-diazocin-5-one]",-0.01 mg/cm^2,+0.01 mg/cm^2,-0.01 mg/cm^2,-0.01 mg/cm^2,0 mg/cm^2,0 mg/cm^2,,,,,,
"CCCCCCCCCCCCCCCCCCNCCCN1CCCN=C(C)CC1=O [Example 37, 1-octadecylaminopropyl-4-methyl-3,6,7,8-tetrahydro-1,5-diazocin-2-one]",-0.03 mg/cm^2,+0.03 mg/cm^2,-0.01 mg/cm^2,-0.01 mg/cm^2,+0.01 mg/cm^2,0 mg/cm^2,,,,,,
CCCCCCCCCCC(O)CN1CC[N+](CC(=O)[O-])=CC(C)C1=O (stereo not drawn) [4-(2-hydroxy)dodecyl-6-methyl-1-azonia-4-azacyclohept-7-en-5-one-1-acetate],,,,,,,-0.01 mg/cm^2,-0.02 mg/cm^2,-0.03 mg/cm^2,-0.03 mg/cm^2,+0.02 mg/cm^2,-0.02 mg/cm^2
"CCCCCCCCCCCCC(O)CN1CCCN=C(C)CC1=O (stereo not drawn) [Example 27, 1-(2-hydroxy)tetradecyl-4-methyl-3,6,7,8-tetrahydro-1,5-diazocin-2-one]",-0.03 mg/cm^2,+0.01 mg/cm^2,-0.01 mg/cm^2,0 mg/cm^2,+0.02 mg/cm^2,-0.01 mg/cm^2,,,,,,
"CCCCCCCCCc1ccc(OCCOCCN2CCCN=C(C)CC2=O)cc1 [Example 7, 1-nonylphenylpoly(2 moles)oxyethyleneoxyethyl-4-methyl-3,6,7,8-tetrahydro-1,5-diazocin-2-one]",-0.02 mg/cm^2,+0.01 mg/cm^2,0 mg/cm^2,-0.01 mg/cm^2,+0.03 mg/cm^2,0 mg/cm^2,,,,,,
"CCCCCCCCCCCCCCC(O)CNCCN1CCN=CC(C)(C)C1=O (stereo not drawn) [Example 59, 4-(2-hydroxyhexadecyl)aminoethyl-6,6-dimethyl-3-hydro-2H-1,4-diazepin-5-one]",-0.01 mg/cm^2,+0.01 mg/cm^2,-0.01 mg/cm^2,0 mg/cm^2,+0.01 mg/cm^2,0 mg/cm^2,,,,,,
"CCCCCCCCCCC(O)CN1CCCN=CC(C)C1=O (stereo not drawn) [Example 45, 1-(2-hydroxy)dodecyl-3-methyl-3,6,7,8-tetrahydro-1,5-diazocin-2-one]",-0.02 mg/cm^2,+0.03 mg/cm^2,-0.02 mg/cm^2,-0.02 mg/cm^2,+0.01 mg/cm^2,-0.02 mg/cm^2,,,,,,
CCCCCCCCCCCCCCC(O)CNCCN1CC[N+](CC(=O)[O-])=CCC(C)C1=O (stereo not drawn) [4-(2-hydroxyhexadecyl)aminoethyl-6-methyl-4-aza-1-azoniacyclooct-8-en-5-one-1-acetate],,,,,,,0 mg/cm^2,-0.01 mg/cm^2,-0.01 mg/cm^2,-0.01 mg/cm^2,+0.02 mg/cm^2,-0.02 mg/cm^2
"1-coconutalkyl-4-methyl-3,6,7,8-tetrahydro-1,5-diazocin-2-one [Example 15]",0 mg/cm^2,+0.01 mg/cm^2,0 mg/cm^2,-0.01 mg/cm^2,0 mg/cm^2,0 mg/cm^2,,,,,,
CCCCCCCCCCCCCCNCCN1CC[N+](CC(=O)[O-])=C(C)CC1=O [4-tetradecylaminoethyl-7-methyl-1-azonia-4-azacyclohept-7-en-5-one-1-acetate],,,,,,,0 mg/cm^2,0 mg/cm^2,-0.01 mg/cm^2,-0.01 mg/cm^2,0 mg/cm^2,-0.02 mg/cm^2
"CCCCCCCCCCCCCCNCCN1CCC[N+](C(C)C(=O)[O-])=CC(C)(C)C1=O (stereo not drawn) [1-tetradecylaminoethyl-3,3-dimethyl-1-aza-5-azoniacyclooct-4-en-2-one-5-propionate]",,,,,,,-0.01 mg/cm^2,0 mg/cm^2,-0.02 mg/cm^2,-0.02 mg/cm^2,+0.02 mg/cm^2,-0.02 mg/cm^2
"CCCCCCCCCCCCNCCN1CCN=C(C)CC1=O [Example 2, 4-dodecylaminoethyl-7-methyl-3,6-dihydro-2H-1,4-diazepin-5-one]",-0.01 mg/cm^2,0 mg/cm^2,0 mg/cm^2,0 mg/cm^2,0 mg/cm^2,-0.01 mg/cm^2,,,,,,
"CCCCCCCCCCCCOCCNCCN1CCN=C(C)CC1=O [Example 6, 4-dodecoxyethylaminoethyl-7-methyl-3,6-dihydro-2H-1,4-diazepin-5-one]",0 mg/cm^2,+0.03 mg/cm^2,0 mg/cm^2,-0.01 mg/cm^2,+0.02 mg/cm^2,-0.01 mg/cm^2,,,,,,

# Source: patent US4346087A, “Antibacterial surface active agent containing azaalkenelactam” (priority 1979, dated 1982)
